Pooled drug test results. Numbers come from NIAID ChemDB, via PubChem.

All rows: whole-cell or culture tests; species: HIV-1

Conditions beyond the fields shown may differ between rows. ECn: concentration that inhibits the pathogen or its effect by n%. Blank or dashed fields: not listed here.

compound | cells | conditions | endpoint | changes | strain or isolate | read by | value
Oc1ccc(/C=C/c2cc(O)cc(O)c2)cc1 | PBMC | clinical isolate | EC50 |  | EJC-X2 | p24 | >10 µM
Nc1ccn([C@H]2CC[C@@H](CO)O2)c(=O)n1 | PBMC |  | EC50 |  | IIIB | p24 | 0.01 µM
COc1cc(C)nc(N2C(=O)CSC2c2c(Cl)cccc2Cl)n1 | MT-4 |  | EC50 |  | IIIB | cytopathic effect | 0.024 µM
C[C@@H]1O[C@@H]2OCCC[C@@H]2[C@@H]1OC(=O)N[C@@H](Cc1ccccc1)[C@H](O)CN1C[C@H]2CCCC[C@H]2C[C@H]1C(=O)NC(C)(C)C | PBMC |  | EC50 | PR-L10I K14R R41K M46I I54V L63P A71V V82A L90M I93L | TM | p24 | >1 µM
C[C@H](Cn1cnc2c(N)ncnc21)OCP(=O)(O)O | Jurkat cells |  | EC50 | +Vpx | NL4-3 |  | 10.9 µM
CC1(C)CC[C@]2(CO)CC[C@]3(C)C(=CCC4[C@@]5(C)CC[C@H](O)C(C)(C)C5CC[C@]43C)C2C1 | HOS.R5 + HOS |  | EC50 |  | IIIB | GFP | >45.2 µM
Cc1ccnc(N2C(=O)CSC2c2c(F)cccc2Cl)n1 | MT-4 |  | EC50 |  | IIIB | cytopathic effect | 0.074 µM
O=C1NS(=O)(=O)c2cc(Cl)ccc2-n2cccc21 | MT-4 |  | EC50 |  | IIIB | cytopathic effect / MTT | ≥200 µM
Nc1nc2c(ncn2[C@H]2CO[C@@H](CO)O2)c(=O)[nH]1 | PBMC |  | EC50 | RT-M184V | 3TC-resistant (RT M184V) Clinical isolate | p24 | 0.03 µM
CCc1cc(NCc2nc3c(Cl)ccc(Cl)c3o2)c(=O)[nH]c1C | CEM |  | EC50 |  | MN | syncytia | 0.03 µM
Nc1nc(N)c2ncn(C[C@@H](CO)OCP(=O)(O)O)c2n1 | H9 |  | EC90 |  | LAV | RT activity | 64 µM
C=C(C)OC(=O)N1c2cc(Cl)ccc2NC(=S)C1(C)C | CEM |  | EC50 | RT-E138K | TSAO(RT-E138K) | syncytia | 0.025 µM
O=c1[nH]cnc2c1ncn2[C@H]1CC[C@@H](CO)O1 | Jurkat cells |  | EC50 |  | NL4-3 |  | 2.045 µM
CC(C)Nc1cccnc1N1CCN(C(=O)c2cc3ccccc3[nH]2)CC1 | CEM |  | EC50 | RT-G190E | MN-QUIN(RT-G190E) | syncytia | 4.4 µM
Cc1cn([C@H]2C[C@H](N=[N+]=[N-])[C@@H](CO)O2)c(=O)[nH]c1=O | PBMC |  | EC90 |  | RF | p24 | 0.002 µM
CC(C)N1C(=O)c2cccn2-c2ccc(Cl)cc2S1(=O)=O | MT-4 |  | EC50 |  | IIIB | cytopathic effect / MTT | 3.8 µM
Cc1cn([C@H]2C[C@H](N=[N+]=[N-])[C@@H](CO)O2)c(=O)[nH]c1=O | CEM |  | EC50 | RT-Y188H |  | cytopathic effect | 0.004 µM
Cc1cn([C@H]2C[C@H](N=[N+]=[N-])[C@@H](CO)O2)c(=O)[nH]c1=O | PBMC |  | EC50 |  | IIIB | p24 | <0.025 µM
Nc1ncnc2c1c1c(N)ncnc1n2[C@@H]1O[C@H](CO)[C@@H](O)[C@H]1O | PBMC |  | EC90 |  | LAI |  | >100 µM
Cc1ccnc2c1NC(=O)c1cccnc1N2C1CC1 | HT4 + HT4 LacZ-1 |  | EC50 | RT-D67N K70R M184V T215F K219Q | RTMC(184) (RT D67N K70R M184V T215F K219Q) | plaque count | 0.04 µM
Cc1ccnc2c1NC(=O)c1cccnc1N2C1CC1 | MDM |  | EC50 | +Vpx | NL4-3 |  | 0.361 µM
Cc1cn([C@H]2C[C@H](N=[N+]=[N-])[C@@H](CO)O2)c(=O)[nH]c1=O | PBMC |  | EC50 |  | H112-2 | p24 | 0.03 µM
Cc1cn([C@H]2C[C@H](N=[N+]=[N-])[C@@H](CO)O2)c(=O)[nH]c1=O | HT4 + HT4-6C |  | EC50 |  | P026A (RT-WT) | plaque count | 0.01 µM
Cn1c2ccccc2c2c1cc(C#N)c(=O)n2-c1ccc([N+](=O)[O-])cc1 | HeLa |  | EC50 | RT-M41L E44D D67N T69D V118I M184V L210W T215Y | NRTI resistant | luciferase | 0.304 µM
Cc1ccnc(N2C(=O)CSC2c2c(Cl)cccc2Cl)n1 | CEM |  | EC50 |  | IIIB | cytopathic effect | 0.032 µM
Cc1cn([C@@H]2O[C@H](CO[Si](C)(C)C(C)(C)C)C3(OS(=O)(=O)C=C3N)[C@H]2O[Si](C)(C)C(C)(C)C)c(=O)n(C)c1=O | CEM |  | EC50 | RT-Y181C | Pyr(RT-Y181C) | syncytia | 3.3 µM
Nc1ncnc2c1ncn2CCOCP(=O)(O)O | H9 |  | EC90 |  | LAV | RT activity | 8 µM
N#CN=C1N(Cc2ccc(N)cc2)[C@H](Cc2ccccc2)[C@H](O)[C@@H](O)[C@@H](Cc2ccccc2)N1Cc1ccc(N)cc1 | MT-2 |  | EC50 |  | RF | hybridisation | <2.3 µM
Cc1cn([C@H]2C[C@H](N=[N+]=[N-])[C@@H](CO)O2)c(=O)[nH]c1=O | MT-4 |  | EC50 |  | IIIB |  | 0.017 µM
Cc1cn([C@H]2C[C@H](N=[N+]=[N-])[C@@H](CO)O2)c(=O)[nH]c1=O | PBMC |  | EC90 |  | LAI |  | >100 µM
O=c1[nH]cnc2c1ncn2[C@H]1CC[C@@H](CO)O1 | HT4 + HT4 LacZ-1 |  | EC50 | RT-D67N K70R T215F K219Q | RTMC (RT D67N K70R T215F K219Q) | plaque count | 2.34 µM
CC(=O)/C=C/C[C@@H](C)[C@H]1CC[C@@]2(C)[C@@H]3CC[C@H]4C(C)(C)[C@@H](O)CCC45CC35CC[C@]12C | HOS.R5 + HOS |  | EC50 |  | IIIB | GFP | >5.9 µM
CC(C)=CCN1C(C)C(=O)N(C(C)C)c2ccc(Cl)cc2S1(=O)=O | MT-4 |  | EC50 |  | IIIB | cytopathic effect / MTT | >56 µM
CCCN1C(=NC#N)N(CCC)[C@H](Cc2ccccc2)[C@H](O)[C@@H](O)[C@H]1Cc1ccccc1 | MT-2 |  | EC50 |  | RF | hybridisation | <7.4 µM
Fc1cccc(F)c1C1SCc2nc3ccccc3n21 | CEM |  | EC50 | RT-E138K |  | cytopathic effect | 1.73 µM
CC(C)CN(C[C@@H](O)[C@H](Cc1ccccc1)NC(=O)O[C@H]1[C@H]2CCCO[C@H]2O[C@@H]1C)S(=O)(=O)c1ccc(N)cc1 | PBMC |  | EC50 | PR-L10I K43T M46I I54V L63P A71V V82A L90M Q92K | MM | p24 | 0.34 µM
O=C1c2cccn2-c2ccc(Cl)cc2S(=O)(=O)N1C1CCCCC1 | MT-4 |  | EC50 |  | IIIB | cytopathic effect / MTT | 4 µM
O=C1N(Cc2ccc3ccccc3c2)[C@H](Cc2ccccc2)[C@H](O)[C@@H](O)[C@@H](Cc2ccccc2)N1Cc1ccc2ccccc2c1 | MT-2 |  | EC50 |  | RF | hybridisation | <3.9 µM
Cc1ccnc2c1NC(=O)c1cccnc1N2C1CC1 | CEM |  | EC50 |  | IIIB | cytopathic effect | 0.044 µM
N#CN=C1N(Cc2cccc(N)c2)[C@H](Cc2ccccc2)[C@H](O)[C@@H](O)[C@@H](Cc2ccccc2)N1Cc1cccc(N)c1 | MT-2 |  | EC50 |  | RF | hybridisation | <0.5 µM
C[C@@]1(O)[C@H](O)[C@@H](CO)O[C@H]1n1c2ncnc(N)c2c2c(N)ncnc21 | PBMC |  | EC90 |  | LAI |  | ≥100 µM
Nc1ccn([C@H]2CC[C@@H](CO)O2)c(=O)n1 | MDM |  | EC50 | +Vpx | NL4-3 |  | 0.042 µM
C[C@@H]1O[C@H]2OCCC[C@H]2[C@H]1OC(=O)N[C@@H](Cc1ccccc1)[C@H](O)CN1C[C@H]2CCCC[C@H]2C[C@H]1C(=O)NC(C)(C)C | PBMC |  | EC50 | PR-L10I K43T M46I I54V L63P A71V V82A L90M Q92K | MM | p24 | >1 µM
Cc1cn([C@H]2C[C@H](N=[N+]=[N-])[C@@H](CO)O2)c(=O)[nH]c1=O | MT-2 |  | EC50 | RT-L74V K103N | Site-directed mutant | cytopathic effect / XTT | 0.6 µM
N#Cc1cc2[nH]c3ccccc3c2n(-c2ccc([N+](=O)[O-])cc2)c1=O | HeLa |  | EC50 | RT-M41L V118I M184V | Recombinant | luciferase | 1.15 µM
Nc1nc(=O)n([C@@H]2CS[C@H](CO)O2)cc1F | MT-2 |  | EC50 |  | HXB2 | cytopathic effect / XTT | 0.1 µM
Cc1cc(C)nc(N2C(=O)CSC2c2c(Cl)cccc2Cl)n1 | CEM |  | EC50 | RT-E138K |  | cytopathic effect | 0.039 µM
N#CN=C1N(Cc2cccc(O)c2)[C@H](Cc2ccccc2)[C@H](O)[C@@H](O)[C@@H](Cc2ccccc2)N1Cc1cccc(O)c1 | MT-2 |  | EC50 |  | RF | hybridisation | <0.13 µM
Nc1nc(NC2CC2)c2ncn([C@H]3C=C[C@@H](CO)C3)c2n1 | MT-2 |  | EC50 | RT-L74V | Site-directed mutant | cytopathic effect / XTT | 7.25 µM

The last 4 rows once more:

| compound | cells | conditions | endpoint | changes | strain or isolate | read by | value |
|---|---|---|---|---|---|---|---|
| Nc1nc(=O)n([C@@H]2CS[C@H](CO)O2)cc1F | MT-2 |  | EC50 |  | HXB2 | cytopathic effect / XTT | 0.1 µM |
| Cc1cc(C)nc(N2C(=O)CSC2c2c(Cl)cccc2Cl)n1 | CEM |  | EC50 | RT-E138K |  | cytopathic effect | 0.039 µM |
| N#CN=C1N(Cc2cccc(O)c2)[C@H](Cc2ccccc2)[C@H](O)[C@@H](O)[C@@H](Cc2ccccc2)N1Cc1cccc(O)c1 | MT-2 |  | EC50 |  | RF | hybridisation | <0.13 µM |
| Nc1nc(NC2CC2)c2ncn([C@H]3C=C[C@@H](CO)C3)c2n1 | MT-2 |  | EC50 | RT-L74V | Site-directed mutant | cytopathic effect / XTT | 7.25 µM |